Pooled drug test results. Numbers come from NIAID ChemDB, via PubChem.

Shared fields: whole-cell or culture tests; agent: HIV-1

ECn: concentration that inhibits the pathogen or its effect by n%. Lines come from different laboratories, so protocols vary. a–b is a range or a potency band. An empty or dashed field is not shown.

smiles,strain,changes,method,cell line,measure,setting,value
CN(C)C(=O)C(=O)N(C)C1CN(Cc2ccccc2)CCn2c1nc(C(=O)NCc1ccc(F)cc1)c(O)c2=O,,,p24,MT-4,EC50,,<1 µM
Nc1ccc(Cl)cc1S(=O)(=O)n1cccc1C(=O)OC1CCCC1,IIIB,,cytopathic effect / MTT,MT-4,EC50,,2 µM
N#CC1=CC2Nc3ccccc3C2N(c2ccc([N+](=O)[O-])cc2)C1=O,B-HXB2,,GFP / fluorescence,HeLa,EC50,,0.25 µM
COC(C(=O)O)c1c(C)nc2ccc(Cl)cc2c1-c1ccc2cc[nH]c2c1,,,luciferase / reporter gene,C8166,EC50,,<20 µM
Cc1cc(S(N)(=O)=O)ccc1NC(=O)COc1ccc(Cl)cc1C(=O)c1cc(F)cc(C(F)(F)F)c1,IIIB,RT-K103N L100I,luciferase,HELA MAGI,EC50,,0.003 µM
Cc1cc(S(N)(=O)=O)ccc1NC(=O)COc1ccc(Cl)cc1C(=O)c1cccc(C#N)n1,HXB2,RT-V106A Y181C,β-galactosidase,HeLa + HELA CD4+,EC50,,<0.01 µM
CCc1c(Sc2cc(C)cc(C)c2)n(COCCO)c(=S)[nH]c1=O,IIIB,RT-E138K,syncytia,CEM,EC50,,0.04 µM
Cn1nccc1CN1CCn2c(nc(C(=O)NCc3ccc(F)cc3)c(O)c2=O)C1(C)C,,,p24,MT-4,EC95,,<1 µM
COC[C@@H](c1ccc(C(F)(F)F)cc1)N1CCN(C2(C)CCN(C(=O)c3c(C)ncnc3C)CC2)C[C@@H]1C,R14/S,G514V,,TZM-bl,EC50,,0.0034 µM
CCOc1ccc(-c2c(C(OC(C)C)C(=O)O)c(C)nc3ccc(Cl)cc23)cc1C,,,luciferase / reporter gene,C8166,EC50,,<20 µM
Cc1cc(C)cc(C(=O)c2cc(Cl)ccc2OCC(=O)Nc2ccc(S(N)(=O)=O)cc2C)c1,HXB2,RT-V108I Y181C,β-galactosidase,HeLa + HELA CD4+,EC50,,<0.01 µM
CCCCOC(=O)c1cc(NC(=S)OC(C)C)ccc1Cl,IIIB,,syncytia,CEM,EC50,,0.127 µM
CCOCn1c(Cc2ccccc2)c(C(C)C)c(=O)[nH]c1=O,IIIB,RT-E138K,syncytia,CEM,EC50,,0.06 µM
CC(C)OC(=O)c1cc(NC(=S)OC(C)(C)C)ccc1Cl,,RT-Y181C,syncytia,CEM,EC50,,19.71 µM
CCOCn1c(Sc2ccccc2)c(C(C)C)c(=O)[nH]c1=S,IIIB,RT-Y181I,syncytia,CEM,EC50,,>30 µM
Nc1ccn([C@H]2CC[C@@H](CO)O2)c(=O)n1,NL4-3,D36G Q41R N43K A96D N126K H132Y V182I P203S L204I S241F H258Q A312T,β-galactosidase,,EC50,,0.536 µM
CCOC(=O)c1ccn(S(=O)(=O)c2cc(Cl)ccc2[N+](=O)[O-])c1,IIIB,,cytopathic effect / MTT,MT-4,EC50,,>0.7 µM
CCc1c(Sc2ccccc2)n(COCc2ccccc2)c(=S)[nH]c1=O,IIIB,,syncytia,CEM,EC50,,0.003 µM
CC(C)O/N=C/c1cc(NC(=S)OC(C)C)ccc1Cl,IIIB,RT-K101E,,CEM,EC50,,0.041 µM
Cc1cc(C)c(CS(=O)c2cccc[n+]2[O-])c(C)c1,IIIB,,syncytia,CEM/MOLT-4 + CEM,EC50,,>20 µg/mL
CCCC(C(=O)O)c1c(C)nc2ccc(Cl)cc2c1-c1ccccc1Cl,,,luciferase / reporter gene,C8166,EC50,,<20 µM
CCOCn1c(Sc2cc(C)cc(C)c2)c(CC)c(=O)[nH]c1=S,IIIB,Nevirapine resistant (RT Y181C),syncytia,CEM,EC50,,0.07 µM
O=C(NCc1ccc(F)cc1)c1nc2n(c(=O)c1O)CCN(Cc1cn[nH]n1)C2,,,p24,MT-4,EC95,,<50 µM
CCCOC(=S)Nc1ccc(Cl)c(C(=O)OC(C)C)c1,,RT-L100I,syncytia,CEM,EC50,,8.55 µM
CC(C)CN(C[C@@H](O)[C@H](Cc1ccccc1)NC(=O)O[C@H]1CO[C@H]2OCC[C@H]21)S(=O)(=O)c1ccc2c(c1)OCO2,NL4-3,,p24,MT-4,EC50,,0.0003 µM
COc1ccc(C)cc1CS(=O)(=O)c1cccc[n+]1[O-],IIIB,,syncytia,CEM,EC50,,5.9 µg/mL
CC(C)c1c(Sc2ccccc2)n(COCCO)c(=O)[nH]c1=O,IIIB,RT-Y181I,syncytia,CEM,EC50,,>10 µM
Nc1nccc2c1ncn2[C@@H]1C=C(CO)[C@@H](O)[C@H]1O,18190 unpaired,,p24,PBMC,EC50,,0.0058 µM
OCCC#Cc1nc(-c2ccc(F)cc2)c(-c2ccncc2)n1CCCc1ccccc1,AZT-resistant A012 Clinical isolate,,p24,PBMC,EC50,,<1 µM
CCC(C)OC(=O)c1cc(NC(=S)OC(C)C)ccc1Cl,,RT-E138K,syncytia,CEM,EC50,,1.667 µM
Cc1cc(OCCCS(N)(=O)=O)ccc1NC(=O)COc1ccc(Cl)cc1C(=O)c1cc(F)cc(C(F)(F)F)c1,HXB2,RT-K103N P225H,β-galactosidase,HeLa + HELA CD4+,EC50,,<0.01 µM
C[C@@H]1CCO[C@H]2Cn3cc(C(=O)NCc4ccc(F)cc4F)c(=O)c(O)c3C(=O)N12,NL4-3,,single cycle,TZM-bl,EC50,,0.00008 µM
CCOCn1c(Sc2ccccc2)c(C(C)C)c(=O)[nH]c1=O,IIIB,,syncytia,CEM,EC50,,0.025 µM
Cc1cc(S(N)(=O)=O)ccc1NC(=O)COc1ccc(Cl)cc1C(=O)c1cccc(C#N)c1,Nevirapine-resistant (RT Y181C),RT-Y181C,cytopathic effect / propidium iodide,MT-4,EC50,,<0.01 µM
C#CCOC(=O)c1cc(NC(=S)OC(C)C)ccc1Cl,,RT-L100I,syncytia,CEM,EC50,,19.24 µM
CC1CC(C)CN(S(=O)(=O)c2ccccc2[N+](=O)[O-])C1,B-92US026,,GFP / fluorescence,PBMC,EC50,,0.37 µM
Cc1cscc1-c1c(C(OC(C)C)C(=O)O)c(C)nc2ccc(Cl)cc12,,,luciferase / reporter gene,C8166,EC50,,<20 µM
C=CCOc1cc(NC(=S)OC(C)C)ccc1Cl,IIIB,,syncytia,CEM,EC50,,0.735 µM
Cc1cc(S(N)(=O)=O)ccc1NC(=O)COc1ccc(Cl)cc1C(=O)c1cc(F)cc(F)c1,HXB2,RT-E138K,β-galactosidase,HeLa + HELA CD4+,EC50,,<0.01 µM
C=CCOC(=O)c1cc(NC(=S)OC(C)C)ccc1Cl,,RT-V106A,syncytia,CEM,EC50,,0.318 µM
CN1CCn2c(nc(C(=O)NCc3ccc(F)cc3)c(O)c2=O)C12CCOCC2,,,p24,MT-4,EC95,,<1 µM
CN1CCN(C(=O)c2ccc3c(=O)c4ccccc4[nH]c3c2)CC1,,RT-E138K,syncytia,CEM,EC50,,1.347 µM
CCOC(=O)c1cccn1S(=O)(=O)c1cc(Cl)ccc1Cl,IIIB,,cytopathic effect / MTT,MT-4,EC50,,7.6 µM
C=C(C)COc1cc(NC(=S)OC(C)C)ccc1Cl,,RT-V106A,syncytia,CEM,EC50,,13.34 µM
CN1C(=O)CN2CCn3c(nc(C(=O)NCc4ccc(F)cc4)c(O)c3=O)C1C2,,,p24,MT-4,EC95,,<50 µM
C/C=C\COc1cc(NC(=S)OC(C)C)ccc1Cl,,RT-E138K,syncytia,CEM,EC50,,0.3 µM
N#Cc1cccn1S(=O)(=O)c1cc(Cl)ccc1N,IIIB,,cytopathic effect / MTT,MT-4,EC50,,3.5 µM
CC(C)[C@H](NC(=O)OCc1ccccn1)C(=O)N[C@@H](Cc1ccccc1)[C@@H](O)C[C@H](Cc1ccccc1)NC(=O)OCc1cccnc1,NL4-3,PR-M46I V82T I84V,p24,MT-4,EC95,,3 µM
Cc1nnc(-c2cccc(-c3cccc(C(=O)N4CCCCC4)c3)c2)o1,CNE55,,luminescence,TZM-bl,EC50,pseudotyped,>30 µM
Cc1nc2ccc(Cl)cc2c(-c2ccc(Cl)nc2)c1C(OC(C)C)C(=O)O,,,luciferase / reporter gene,C8166,EC50,,<20 µM
CC1=C(C(=O)Nc2ccc(Cl)c(C(=O)OC(C)C)c2)SCCO1,,RT-L100I,syncytia,CEM,EC50,,≥5.89 µM
CCOCn1c(Cc2cc(C)cc(C)c2)c(CC)c(=O)[nH]c1=O,IIIB,Nevirapine resistant (RT Y181C),syncytia,CEM,EC50,,0.06 µM
C/C=C/COc1cc(NC(=S)OC(C)C)ccc1Cl,IIIB,RT-K101E,,CEM,EC50,,0.013 µM
Cc1cc(C#N)cc(C(=O)c2cc(Cl)ccc2OCC(=O)Nc2ccc(S(N)(=O)=O)nc2C)c1,HXB2 (RT-K103N G190A) Recombinant,RT-K103N G190A,β-galactosidase,HeLa + HELA CD4+,EC50,,<0.01 µM
CC(C)COC(=O)c1cc(NC(=S)OC(C)C)ccc1Cl,,RT-L100I,syncytia,CEM,EC50,,2.729 µM
Nc1nccc2c1ncn2[C@@H]1O[C@H](CO)[C@@H](O)[C@H]1O,MN,,syncytia,H9,EC50,,0.001 µM
CC(C)OC(=O)c1cc(NC(=S)OCC2CC2)ccc1Cl,IIIB,,syncytia,CEM,EC50,,0.2135 µM
CCCC(C(=O)O)c1c(C)nc2ccc(Cl)cc2c1-c1ccc(OC)cc1,,,luciferase / reporter gene,C8166,EC50,,<20 µM
CC1(C)c2nc(C(=O)NCc3ccc(F)cc3)c(O)c(=O)n2CCN1CCc1ccccn1,,,p24,MT-4,EC50,,<1 µM
Cc1ccccc1OC(=O)c1cc(NC(=S)OC(C)C)ccc1Cl,,RT-E138K,syncytia,CEM,EC50,,20.61 µM
Cc1cc2cn[nH]c2cc1NC(=O)COc1ccc(Cl)cc1C(=O)c1cccc(C#N)c1,HXB2,RT-V106A Y181C,β-galactosidase,HeLa + HELA CD4+,EC50,,0.011–0.1 µM
CC(C)=CCOc1cc(NC(=S)c2ccoc2C)ccc1Cl,NL4-3,RT-A98G,p24,CEM + CEM-SS,EC50,,0.02 µM
O=S(=O)(Cc1ccccc1I)c1cccc[n+]1[O-],IIIB,RT-L100I,syncytia,CEM,EC50,,10 µg/mL
CCc1c(Sc2cc(C)cc(C)c2)n(COCc2ccccc2)c(=O)[nH]c1=O,IIIB,RT-Y188H,syncytia,CEM,EC50,,0.63 µM
CCc1cc(C#N)cc(C(=O)c2cc(Cl)ccc2OCC(=O)Nc2ccc(S(N)(=O)=O)cc2C)c1,IIIB,,cytopathic effect / propidium iodide,MT-4,EC50,,<0.01 µM
CCN(CC)C(=O)c1cccn1S(=O)(=O)c1cc(Cl)ccc1[N+](=O)[O-],IIIB,,cytopathic effect / MTT,MT-4,EC50,,>13 µM
CC(C)OC(=O)c1cc(NC(=S)OC(C)C)ccc1Cl,,RT-Y181C,syncytia,CEM,EC50,,1.9 µM
Cc1nc2ccc(Cl)cc2c(-c2ccc(CO)cc2)c1C(OC(C)C)C(=O)O,,,luciferase / reporter gene,C8166,EC50,,<20 µM
CS(=O)(=O)Nc1ccc(NC(=O)COc2ccc(Cl)cc2C(=O)c2ccccc2)cc1,Nevirapine-resistant (RT Y181C),RT-Y181C,cytopathic effect / propidium iodide,MT-4,EC50,,0.011–0.1 µM
CCOC(=O)c1cc(NC(=S)OC(C)C)ccc1C,,RT-L100I,syncytia,CEM,EC50,,24.88 µM

The last 10 rows once more:

| smiles | strain | changes | method | cell line | measure | setting | value |
|---|---|---|---|---|---|---|---|
| Cc1cc2cn[nH]c2cc1NC(=O)COc1ccc(Cl)cc1C(=O)c1cccc(C#N)c1 | HXB2 | RT-V106A Y181C | β-galactosidase | HeLa + HELA CD4+ | EC50 |  | 0.011–0.1 µM |
| CC(C)=CCOc1cc(NC(=S)c2ccoc2C)ccc1Cl | NL4-3 | RT-A98G | p24 | CEM + CEM-SS | EC50 |  | 0.02 µM |
| O=S(=O)(Cc1ccccc1I)c1cccc[n+]1[O-] | IIIB | RT-L100I | syncytia | CEM | EC50 |  | 10 µg/mL |
| CCc1c(Sc2cc(C)cc(C)c2)n(COCc2ccccc2)c(=O)[nH]c1=O | IIIB | RT-Y188H | syncytia | CEM | EC50 |  | 0.63 µM |
| CCc1cc(C#N)cc(C(=O)c2cc(Cl)ccc2OCC(=O)Nc2ccc(S(N)(=O)=O)cc2C)c1 | IIIB |  | cytopathic effect / propidium iodide | MT-4 | EC50 |  | <0.01 µM |
| CCN(CC)C(=O)c1cccn1S(=O)(=O)c1cc(Cl)ccc1[N+](=O)[O-] | IIIB |  | cytopathic effect / MTT | MT-4 | EC50 |  | >13 µM |
| CC(C)OC(=O)c1cc(NC(=S)OC(C)C)ccc1Cl |  | RT-Y181C | syncytia | CEM | EC50 |  | 1.9 µM |
| Cc1nc2ccc(Cl)cc2c(-c2ccc(CO)cc2)c1C(OC(C)C)C(=O)O |  |  | luciferase / reporter gene | C8166 | EC50 |  | <20 µM |
| CS(=O)(=O)Nc1ccc(NC(=O)COc2ccc(Cl)cc2C(=O)c2ccccc2)cc1 | Nevirapine-resistant (RT Y181C) | RT-Y181C | cytopathic effect / propidium iodide | MT-4 | EC50 |  | 0.011–0.1 µM |
| CCOC(=O)c1cc(NC(=S)OC(C)C)ccc1C |  | RT-L100I | syncytia | CEM | EC50 |  | 24.88 µM |